In US20180016348A1 (Janssen / Centocor, published 2018):

B1: CR12040 (antibody, V domains shown)
VH: QVQLVQSGAEVKKPGASVKVSCKASGYTFTNYYINWVRQAPGQGLEWMGRINPLHGGTGFAEKFQGRLTMTRDTSTSTVDMELSSLRSEDTAIYYCVKERDTTMATDYYGRSGCFDYWGQGTLVTVSS
VL: EIVLTQSPATLSLSPGERATLSCRASQSVRSYLAWYQQKPGQAPRLLIYDASNRATGIPARFSGSGSGTDFSLTISSLEPEDFAVYYCQQRSNWPITFGQGTRLEIK
B2: CR12042 (antibody, V domains shown)
VH: EVQLVESGAEVRKPGSSVKVSCTASGDTFSSYTITWVRQAPGQGLEWMGEIIPIFGTANYAQKFQGRVTLTADESTTTAYMDLSSLRSEDTAVYYCARGPDNHSDRYFYYGMDVWGQGTTVTVSS
VL: EIVLTQSPLSLPVTPGEPASISCRSSQSLLHSTGNNYLDWYLQKPGQSPQLLIYLGSNRASGVPDRFSGSGSGTDFTLKISRVEAEDVGVYYCMQALQTPRTFGQGTKVDIK

What was measured:
[1] = biological target: T1, neuraminidase (NA) of H5N1 A/Hong Kong/156/1997 (influenza A virus H5N1 A/Hong …, UniProt Q9W7Y7 1-450); test: cell-based or functional assay
[2] = biological target: T2, neuraminidase (NA) of H1N1 A/California/07/2009 (influenza A virus H1N1 …); test: flow cytometry on NA-transfected 293-F cells, IgG 5 µg/ml; ++: 50-75% binding
T2 construct: whole, on cells

[3] = biological target: T1, neuraminidase (NA) of H5N1 A/Hong …; test: cell-based or functional assay; remark: listed apart in the source
[4] = biological target: T3, neuraminidase (NA) of H1N1 A/Brisbane/59/2007 (influenza A virus H1N1 …); test: flow cytometry on NA-transfected 293-F cells, IgG 5 µg/ml; +++: 75-100% binding
T3 construct: whole, on cells

[5] = biological target: neuraminidase (NA) of H5N1 A/Vietnam/1194/2004 (NIBRG-14) (influenza A virus H5N1 …); test: as above
[6] = biological target: T4, neuraminidase (NA) of H3N2 A/Perth/16/2009 (influenza A virus H3N2 A/Perth/16/2009); test: flow cytometry on NA-transfected 293-F cells, IgG 5 µg/ml; ++: 50-75% binding
T4 construct: whole, on cells

[7] = biological target: T5, neuraminidase (NA) of H1N1 A/Puerto Rico/8/1934 (influenza A virus H1N1 A/Puerto …, UniProt P03468 1-454); test: as above
T5 construct: whole, on cells

[8] = biological target: T2, neuraminidase (NA) of H1N1 …; test: flow cytometry on NA-transfected 293-F cells, IgG 5 µg/ml; +++: 75-100% binding

| Binder | EC50 of neuraminidase inhibition (NA-XTD assay, whole virus) [1] [µg/mL] | percentage of stained cells (relative binding, FACS) [2] [%] | IC50 of virus neutralization (VNA on MDCK cells) [3] [µg/mL] | percentage of stained cells (relative binding, FACS) [4] [%] | percentage of stained cells (relative binding, FACS) [5] [%] | percentage of stained cells (relative binding, FACS) [6] [%] | percentage of stained cells (relative binding, FACS) [7] [%] | percentage of stained cells (relative binding, FACS) [8] [%] |
| --- | --- | --- | --- | --- | --- | --- | --- | --- |
| B1 | > 100 | 50 to 75 | > 50 | 75 to 100 | 75 to 100 | – | – | – |
| B2 | 0.02 | – | 0.29 | 75 to 100 | 75 to 100 | 50 to 75 | 50 to 75 | 75 to 100 |
